Measured values as given in PMC5552913.

Test system: His-CalR (Vibrio parahaemolyticus RIMD 2210633)
Experiment: EMSA
Details: salmon sperm DNA competitor, dose dependent; 10 mM Tris-HCl pH 7.5, 50 mM NaCl, 1 mM MgCl2, 0.5 mM EDTA, 0.5 mM DTT; room temperature, 20 min (EMSA) or 30 min (footprinting); recombinant protein; residues 1-319; protein details: 6xHis (pET28a, BamHI/HindIII); probe letters rebuilt from the primers and the genome

“CGAAATCAGCGATATTGTTGTTTGCGCCTGCATCGCCTAGATACGTGTCATTGTCACTTGTGCTCATTTTTATTCCCTCTGGCTTATTTATTGAATAGACCTTTTATTCCACGTCTGATGAGATTCGTTCCAGACATGAGAAGTCTAATAGCCAAGTGGATAAGAATGAGTTTGAATATGGGATGATATTTCTAACTGACCTTTTAATTATAAATATAAAACTTAGTACTTTATCTATTGTTTTCTTTTAATTACATGCAGTTATTCCTAGTACTAGAGGTTTCTTTTTGCCCAACTTGTGGCTTGCGTCCTA (double strand) [mfpABC promoter EMSA fragment]”: binds.
